Results published in patent US6596723B1, “Fungal efflux pump inhibitors” (Essential Therapeutics, Inc., priority 2001, dated 2003).

How the values were obtained:
[1] = system: Candida albicans YEM15 (over-expressing the CDR1 and CDR2 pumps); assay type: cell-based; conditions: strain YEM15; concentration of efflux pump inhibitor necessary to reduce the fluconazole MIC 8-fold
[2] = system: C. glabrata YEM19 (over-expressing the CgCDR1 and CgCDR2 pumps); assay type: cell-based, Candida glabrata; conditions: strain YEM19; efflux pump inhibitor concentration reducing fluconazole MIC 8-fold

SMILES	MPC8 [1] [µg/mL]	MPC8 [2] [µg/mL]
COc1ccc(N(C(=O)Oc2ccc(C)cc2)C(C)c2nc3ccccc3c(=O)n2N2CCN(C)CC2)c(OC)c1 (stereo not drawn) [Compound 19, (2,4-Dimethoxy-phenyl)-{1-[3-(4-methyl-piperazin-1-yl)-4-oxo-3,4-dihydro-quinazolin-2-yl]-ethyl}-carbamic acid p-tolyl ester]	16	32
COc1ccc(NC(=O)N(c2ccc(OC)cc2OC)C(C)c2nc3ccc(Cl)cc3c(=O)n2N2CCN(C)CC2)cc1 (stereo not drawn) [Compound 25, 1-{1-[6-Chloro-3-(4-methyl-piperazin-1-yl)-4-oxo-3,4-dihydro-quinazolin-2-yl]-ethyl}-1-(2,4-dimethoxy-phenyl)-3-(4-methoxy-phenyl)-urea]	1	4
CC(c1nc2ccccc2c(=O)n1N1CCN(C)CC1)N(C(=O)Nc1cccc(Cl)c1)c1ccc2c(c1)OCO2 (stereo not drawn) [Compound 18, 1-Benzo[1,3]dioxol-5-yl-3-(3-chloro-phenyl)-1-{1-[3-(4-methyl-piperazin-1-yl)-4-oxo-3,4-dihydro-quinazolin-2-yl]-ethyl}-urea]	0.125	32
COc1ccc(N(C(=O)Nc2cccc(Cl)c2)C(C)c2nc3ccccc3c(=O)n2N2CCN(C)CC2)cc1 (stereo not drawn) [Compound 4, 3-(3-Chloro-phenyl)-1-(4-methoxy-phenyl)-1-{1-[3-(4-methyl-piperazin-1-yl)-4-oxo-3,4-dihydro-quinazolin-2-yl]-ethyl}-urea]	2	32
COc1ccc(N(C(=O)Nc2ccc(Cl)cc2)C(C)c2nc3ccccc3c(=O)n2N2CCN(C)CC2)cc1 (stereo not drawn) [Compound 12, 3-(4-Chloro-phenyl)-1-(4-methoxy-phenyl)-1-{1-[3-(4-methyl-piperazin-1-yl)-4-oxo-3,4-dihydro-quinazolin-2-yl]-ethyl}-urea]	8	16
COc1ccc(N(C(=O)Nc2ccccc2)C(C)c2nc3ccc(Cl)cc3c(=O)n2N2CCN(C)CC2)c(OC)c1 (stereo not drawn) [Compound 24, 1-{1-[6-Chloro-3-(4-methyl-piperazin-1-yl)-4-oxo-3,4-dihydro-quinazolin-2-yl]-ethyl}-1-(2,4-dimethoxy-phenyl)-3-phenyl-urea]	0.125	4
COc1ccc(N(C(=O)Oc2ccc(Cl)cc2)C(C)c2nc3ccccc3c(=O)n2N2CCN(C)CC2)c(OC)c1 (stereo not drawn) [Compound 17, (2,4-Dimethoxy-phenyl)-{1-[3-(4-methyl-piperazin-1-yl)-4-oxo-3,4-dihydro-quinazolin-2-yl]-ethyl}-carbamic acid 4-chloro-phenyl ester]	8	16
COc1ccc(N(C(=O)Nc2ccc(C)cc2)C(C)c2nc3ccc(C)cc3c(=O)n2N2CCN(C)CC2)c(OC)c1 (stereo not drawn) [Compound 44, 1-(2,4-Dimethoxy-phenyl)-1-{1-[6-methyl-3-(4-methyl-piperazin-1-yl)-4-oxo-3,4-dihydro-quinazolin-2-yl]-ethyl}-3-p-tolyl-urea]	0.25	2
COc1ccc(N(C(=O)Nc2ccc(F)cc2)C(C)c2nc3ccccc3c(=O)n2N2CCN(C)CC2)c(OC)c1 (stereo not drawn) [Compound 13, 1-(2,4-Dimethoxy-phenyl)-3-(4-fluoro-phenyl)-1-{1-[3-(4-methyl-piperazin-1-yl)-4-oxo-3,4-dihydro-quinazolin-2-yl]-ethyl}-urea]	4	4
COc1ccc(N(C(=O)Nc2ccc(F)cc2)C(C)c2nc3ccccc3c(=O)n2N2CCN(CCCl)CC2)c(OC)c1 (stereo not drawn) [Compound 41, 1-(1-{3-[4-(2-Chloro-ethyl)-piperazin-1-yl)-4-oxo-3,4-dihydro-quinazolin-2-yl}-ethyl)-1-(2,4-dimethoxy-phenyl)-3-(4-fluoro-phenyl)-urea]	8	8
COc1ccc(N(C(=O)Nc2ccccc2)C(C)c2nc3ccccc3c(=O)n2N2CCN(C)CC2)c(OC)c1 (stereo not drawn) [Compound 8, 1-(2,4-Dimethoxy-phenyl)-1-{1-[3-(4-methyl-piperazin-1-yl)-4-oxo-3,4-dihydro-quinazolin-2-yl)-ethyl}-3-phenyl-urea]	2	8
CC(c1nc2ccccc2c(=O)n1N1CCN(C)CC1)N(C(=O)Nc1ccc(Cl)cc1)c1ccc2c(c1)OCO2 (stereo not drawn) [Compound 31, 1-Benzo[1,3]dioxol-5-yl-3-(4-chloro-phenyl)-1-{1-[3-(4-methyl-piperazin-1-yl)-4-oxo-3,4-dihydro-quinazolin-2-yl]-ethyl}-urea]	2	16
COc1ccc(N(C(=O)Nc2ccc(F)cc2)C(C)c2nc3ccc(F)cc3c(=O)n2N2CCN(CCO)CC2)c(OC)c1 (stereo not drawn) [Compound 42]	1	1
COc1ccc(N(C(=O)Nc2cccc(C)c2)C(C)c2nc3ccccc3c(=O)n2N2CCN(C)CC2)c(OC)c1 (stereo not drawn) [Compound 20, 1-(2,4-Dimethoxy-phenyl)-1-{1-[3-(4-methyl-piperazin-1-yl)-4-oxo-3,4-dihydro-quinazolin-2-yl]-ethyl}-3-m-tolyl-urea]	0.5	1
COc1ccc(N(C(=O)Nc2cccc(Cl)c2)C(C)c2nc3ccccc3c(=O)n2N2CCN(C)CC2)c(OC)c1 (stereo not drawn) [Compound 1, 3-(3-Chloro-phenyl)-1-(2,4-dimethoxy-phenyl)-1-{1-[3-(4-methyl-piperazin-1-yl)-4-oxo-3,4-dihydro-quinazolin-2-yl]-ethyl}-urea]	0.125	2
COc1ccc(N(C(=O)Nc2ccc(F)cc2)C(C)c2nc3ccccc3c(=O)n2N2CCN(CCO)CC2)c(OC)c1 (stereo not drawn) [Compound 40, 1-(2,4-Dimethoxy-phenyl)-3-(4-fluoro-phenyl)-1-(1-{3-[4-(2-hydroxy-ethyl)-piperazin-1-yl]-4-oxo-3,4-dihydro-quinazolin-2-yl}-ethyl)-urea]	2	4
COc1ccc(N(C(=O)Nc2ccc(Cl)cc2)C(C)c2nc3ccc(F)cc3c(=O)n2N2CCN(C)CC2)c(OC)c1 (stereo not drawn) [Compound 38, 3-(4-Chloro-phenyl)-1-(2,4-dimethoxy-phenyl)-1-{1-[6-fluoro-3-(4-methyl-piperazin-1-yl)-4-oxo-3,4-dihydro-quinazolin-2-yl]-ethyl}-urea]	0.5	0.25
COc1ccc(N(C(=O)Nc2ccc(C)cc2)C(C)c2nc3ccc(OC)cc3c(=O)n2N2CCN(C)CC2)c(OC)c1 (stereo not drawn) [Compound 45, 1-(2,4-Dimethoxy-phenyl)-1-{1-[6-methoxy-3-(4-methyl-piperazin-1-yl)-4-oxo-3,4-dihydro-quinazolin-2-yl]-ethyl}-3-p-tolyl-urea]	1	1
